# Test results taken from patent US7067714B1 (priority 1999, dated 2006).
# Chains of the proteins cited; added tags and fusions are not shown.
# UniProt O55017, whole entry, looked up: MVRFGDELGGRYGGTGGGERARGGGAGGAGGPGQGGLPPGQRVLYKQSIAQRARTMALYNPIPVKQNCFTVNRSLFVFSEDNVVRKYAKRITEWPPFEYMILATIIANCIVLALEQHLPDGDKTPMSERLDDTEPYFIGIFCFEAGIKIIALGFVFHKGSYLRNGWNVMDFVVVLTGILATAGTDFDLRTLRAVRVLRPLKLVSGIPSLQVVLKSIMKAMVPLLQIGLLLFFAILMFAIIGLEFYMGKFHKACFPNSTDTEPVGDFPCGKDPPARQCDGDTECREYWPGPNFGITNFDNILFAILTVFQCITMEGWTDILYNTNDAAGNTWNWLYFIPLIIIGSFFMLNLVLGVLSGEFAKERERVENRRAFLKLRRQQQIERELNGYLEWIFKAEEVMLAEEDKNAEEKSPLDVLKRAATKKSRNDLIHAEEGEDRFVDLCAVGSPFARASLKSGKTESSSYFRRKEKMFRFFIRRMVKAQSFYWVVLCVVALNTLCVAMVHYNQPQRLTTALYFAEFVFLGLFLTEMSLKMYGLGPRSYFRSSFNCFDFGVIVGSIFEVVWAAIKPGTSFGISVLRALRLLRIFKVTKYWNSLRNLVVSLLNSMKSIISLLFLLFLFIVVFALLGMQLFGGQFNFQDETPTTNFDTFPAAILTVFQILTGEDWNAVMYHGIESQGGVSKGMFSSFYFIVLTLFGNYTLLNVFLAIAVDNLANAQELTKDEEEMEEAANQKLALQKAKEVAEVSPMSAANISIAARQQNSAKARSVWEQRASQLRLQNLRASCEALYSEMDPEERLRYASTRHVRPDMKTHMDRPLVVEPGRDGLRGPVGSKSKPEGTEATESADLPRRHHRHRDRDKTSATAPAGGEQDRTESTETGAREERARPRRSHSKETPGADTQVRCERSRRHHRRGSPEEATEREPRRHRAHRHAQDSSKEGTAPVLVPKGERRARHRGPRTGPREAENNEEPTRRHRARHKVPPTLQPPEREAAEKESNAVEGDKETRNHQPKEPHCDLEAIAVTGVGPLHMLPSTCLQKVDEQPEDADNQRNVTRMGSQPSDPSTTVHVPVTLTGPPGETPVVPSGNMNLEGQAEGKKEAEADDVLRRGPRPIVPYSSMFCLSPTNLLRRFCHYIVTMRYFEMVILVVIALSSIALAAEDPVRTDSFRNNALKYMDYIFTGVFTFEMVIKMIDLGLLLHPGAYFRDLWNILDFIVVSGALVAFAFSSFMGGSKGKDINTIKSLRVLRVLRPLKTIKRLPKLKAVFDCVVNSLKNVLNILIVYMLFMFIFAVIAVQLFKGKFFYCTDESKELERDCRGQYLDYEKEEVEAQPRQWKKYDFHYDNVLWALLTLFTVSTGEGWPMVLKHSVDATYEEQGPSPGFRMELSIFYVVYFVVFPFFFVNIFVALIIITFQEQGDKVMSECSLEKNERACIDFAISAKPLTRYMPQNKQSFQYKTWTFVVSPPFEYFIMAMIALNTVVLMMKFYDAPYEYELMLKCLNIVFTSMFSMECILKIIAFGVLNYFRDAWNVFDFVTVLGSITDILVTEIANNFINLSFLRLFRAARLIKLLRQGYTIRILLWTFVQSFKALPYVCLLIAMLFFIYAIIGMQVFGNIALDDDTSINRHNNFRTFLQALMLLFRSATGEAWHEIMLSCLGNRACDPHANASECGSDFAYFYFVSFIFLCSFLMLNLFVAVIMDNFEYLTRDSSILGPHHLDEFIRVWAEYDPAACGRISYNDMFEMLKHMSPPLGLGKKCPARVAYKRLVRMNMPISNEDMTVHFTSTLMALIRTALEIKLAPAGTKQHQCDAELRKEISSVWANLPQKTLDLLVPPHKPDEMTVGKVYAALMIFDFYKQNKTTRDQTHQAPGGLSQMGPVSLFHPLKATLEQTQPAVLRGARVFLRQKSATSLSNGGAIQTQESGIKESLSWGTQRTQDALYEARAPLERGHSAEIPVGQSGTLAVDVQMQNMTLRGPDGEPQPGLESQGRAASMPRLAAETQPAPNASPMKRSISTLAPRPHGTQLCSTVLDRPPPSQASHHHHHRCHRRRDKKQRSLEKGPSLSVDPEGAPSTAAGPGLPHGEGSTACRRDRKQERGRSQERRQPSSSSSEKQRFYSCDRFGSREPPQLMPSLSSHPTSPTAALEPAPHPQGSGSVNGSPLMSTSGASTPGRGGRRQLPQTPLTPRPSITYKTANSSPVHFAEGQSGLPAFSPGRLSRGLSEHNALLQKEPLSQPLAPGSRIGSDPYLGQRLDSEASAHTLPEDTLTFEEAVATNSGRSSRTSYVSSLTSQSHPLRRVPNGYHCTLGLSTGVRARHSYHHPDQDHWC
# Target: N-type Ca channel (Mus musculus, UniProt O55017)
# Settings: in vivo
substance,measurement,value
ω-conotoxin GVIA,transient rise of blood pressure on BCO for 30 seconds,mostly disappeared
